Experimental data published in article PMC5371411 (mBio, 2017).

Target: His-EspCΔ430-448 (enteropathogenic Escherichia coli (EPEC), UniProt Q9EZE7 55-1032, Δ430-448)
Assay: far-Western, overlay or dot blot

B1: His-EspA (natural protein)
chain: MDTSTTASVASANASTSTSMAYDLGSMSKDDVIDLFNKLGVFQAAILMFAYMYQAQSDLSIAKFADMNEASKESTTAQKMANLVDAKIADVQSSSDKNAKAQLPDEVISYINDPRNDITISGIDNINAQLGAGDLQTVKAAISAKANNLTTTVNNSQLEIQQMSNTLNLLTSARSDMQSLQYRTISGISLGK
notes: also called EPEC secreted protein A
binding result: binds
